Here are results for two compounds from patent US8557848B2, “4,5-ring annulated indole derivatives for treating or preventing of HCV and related viral infections” (Merck Sharp & Dohme Corp., priority 2006, dated 2013).

Experiment [1] addresses HCV NS5B polymerase (NS5BΔCT21, from HCV-Con 1 isolate, genotype 1b) (Hepatitis C virus genotype 1b, UniProt Q9WMX2). In words: HCV NS5B Polymerase Inhibition Assay. To be noted: [33P]-CTP incorporation, 22° C. for 2 hours. The text has this: A chemically synthesized 75-mer version, designated DCoH75, whose sequence matches the 3′-end of D-RNA, and DCoH75ddC, where the 3′-terminal cytidine of DCoH75 is replaced by dideoxycytidine, were used for assaying the NS5B enzyme activity as described in Ferrari et al., 12th International Symposium on HCV and Related Viruses, P-306 (2005). The sequence of the template RNA was: 5′-UGUGCCGGUCUUUCUGAACGGGAUAUAAACCUGGCCAGCUUCAUCGAACAAGUUGCCGUGUCUAUGACAUAGAUC-3′. A soluble C-terminal 21-amino acid truncated NS5B enzyme form (NS5BΔCT21, from HCV-Con 1 isolate, genotype 1b, Genbank accession number AJ238799) was produced and purified from Escherichia coli as C-terminal polyhistidine-tagged fusion protein as described in Ferrari et al., J. Virol. 73:1649-1654 (1999). […] Reactions were incubated at 22° C. for 2 hours, then stopped by adding 150 mM EDTA, washed in DE81 filter plate in 0.5M di-basic sodium phosphate buffer, pH 7.0, and counted using Packard TopCount after the addition of scintillation cocktail. Polynucleotide synthesis was monitored by the incorporation of radiolabeled CTP. The effect of the Compounds of Formula (I) on the polymerase activity was evaluated by adding various concentrations of a Compound of Formula (I), typically in 10 serial 2-fold dilutions, to the assay mixture. […]

In experiment [2] the test system is HCV replicon cells (replicon RNA level). The experiment can be described thus: Cell-Based HCV Replicon Assay. To be noted: replicon RNA level by real time PCR (Taqman), cells harvested on day 3. Here is the method:
To measure cell-based anti-HCV activity of the a Compound of Formula (I), replicon cells were seeded at 5000 cells/well in 96-well collagen I-coated Nunc plates in the presence of the Compound of Formula (I). Various concentrations of a Compound of Formula (I), typically in 10 serial 2-fold dilutions, were added to the assay mixture, with the starting concentration ranging from 250 μM to 1 μM. The final concentration of DMSO was 0.5%, fetal bovine serum was 5%, in the assay media. Cells were harvested on day 3 by the addition of 1× cell lysis buffer (Ambion cat #8721). The replicon RNA level was measured using real time PCR (Taqman assay). The amplicon was located in 5B. The PCR primers were: 5B.2F, ATGGACAGGCGCCCTGA; 5B.2R, […]; the probe sequence was FAM-labeled CACGCCATGCGCTGCGG. GAPDH RNA was used as endogenous control and was amplified in the same reaction as NS5B (multiplex PCR) using primers and VIC-labeled probe recommended by the manufacturer (PE Applied Biosystem). The real-time RT-PCR reactions were run on ABI PRISM 7900HT Sequence Detection System using the following program: 48° C. for 30 min, 95° C. for 10 min, 40 cycles of 95° C. for 15 sec, 60° C. for 1 min. […] Alternatively, to quantitate the absolute amount of replicon RNA, a standard curve was established by including serially diluted T7 transcripts of replicon RNA in the Taqman assay. […]

Molecules are shown by their SMILES. Some results are limits rather than exact numbers.

The compound `CS(=O)(=O)NC(=O)c1c(-c2ccc[nH]c2=O)c2c3occ(Cl)c3ccc2n1Cc1ccccc1F` came in with an IC50 in experiment [1] below 0.025 µM. In addition, the EC50 in experiment [2] is below 0.5 µM.

`CC(C)(C)C(=O)OCn1cc(F)c(Cn2c(C(=O)O)c(-c3ccc[nH]c3=O)c3c4occc4c(F)cc32)cc1=O` returned an IC50 in experiment [1] below 0.025 µM. For the same compound, the EC50 in experiment [2] was below 0.5 µM.

The term IC50 denotes the concentration needed to halve the response being measured. The low end stands for inhibition by little substance, the high end for a need for much substance. Usually EC50 stands for the concentration at which the effect is half-maximal. A high value points to lower potency in that assay.
